Reference: the supplement of paper PMC9931576
Human monoclonal antibodies against the spike receptor-binding domain (heavy:light variable regions). IC50 against pseudoviruses bearing the spike of naturally observed variants; lower = stronger; >10 µg/ml means not reached at the top dose. No active / inactive call. The stated detection limit is 0.0005 µg/ml; values near or below 0.001 µg/ml lie at the floor of the assay.

B1: BD56-1619 (protein)
chain 1: QLLLQESVSGLVKPSQTLSLTCAVSGGSISSGGFSWSWIRQAPGKGLEWIGNIYHGGSTHYNPSLKSRVTISGDRSKNQFSLKLTSVTAADTAVYYCARGRPPGYSYAYADDWYFDLWGRGTLVTVSS
chain 2: SYELTQPPSVSVSPGQTARITCSADALPTQYVYWYQQKPGQAPVLVIYKDSERPSGIPERFSGSSSGTKVTLTISGVQAEDEADYYCQSADSRGVVFGGGTKLTVL
B2: BD56-1620 (protein)
chain 1: QVQLVESGGGVVQPGRSLRLSCAASGFTFRSYAIHWVRQAPGKGLEWVGVISSDGFDKYFADSVKGRATISRDNSKNTLFLQMNSLTTDDTAVYYCAREKVLGGSWSGYPMGDYWGQGTLVTVSS
chain 2: DIQMTQSPSSLSASVGDRVTIACQASQDINNYVSWFQQKPGKAPKLLIYDASNLETGVPSRFSGSGSGTHFTFTISSLQPEDIATYYCQQYDNFPRTFGRGTKLEIK
B3: BD56-1621 (protein)
chain 1: EVQLVESGGGLVKPGGSLRLSCAASGFTFITYTMNWVRQAPGQGLEWVSSISSSNRYIYYADSVKGRFTISRDNAKNSLYLRMSSLRAEDTAVYYCARVVAVDAPDDYYYFYGMDVWGQGTTVTVSS
chain 2: SYELTQPPSVSVSPGQTARITCSGDAFPRQYAYWYKQKPGQAPVLVIYKDTERPSGIPERFSGSNSGTTVTLTISGVQAEDEADYYCQSADRSGTYVLFGGGTKLTVL
B4: BD56-1623 (protein)
chain 1: QLQLQESGPGLVKPSATLSLTCTVSGGFISSSTYYWGWIRQPPGKGLEWIASFFYTGTTFYNPSLKSRLTISVDTSRNHFSVKLISVTAADTAVYYCARHGTRLAVADSFDSWGQGTLVTVSS
chain 2: QSVLTQPPSVSGAPGQRVTISCTGSSSNIGAGFDVHWYRQLPGTAPKLLIYGNNIRPSGVPDRFSGSKSGTSASLAITGLQADDEGNYYCQSFDNSLSVWVFGGGTKLTVL
B5: BD56-1637 (protein)
chain 1: QVRLVQSGAEVKKPGSSVKVSCKASGGTFSSYTINWVRQAPGQGLEWMGRIIPILDIADYAQKFQGRVTITADKSTSTAYMELISLRSEDTAMYYCARDASDCTSTNCFDYWGQGTLVTVSS
chain 2: QSVLTQPPSVSGAPGQRVTISCTGSNSNIGAGYDVHWYQQLPGTPPKLLIYVNSNRPSGVPDRFSGSKSGTSASLAITGLQAEDEADYYCQSYDSSLSGPVFGGGTKLTVL
B6: BD56-1638 (protein)
chain 1: QVQLVESGGGVVQPGRSLRLSCAASGFTFSTYGMHWVRQAPGTGLEWVTFISDDENKKYYIDSVKGRFTISRDNSKSTLYLQMNSLRPEDTAVYYCAKDPGFCSSTRCQTQDYFDYWGQGTLVTVSS
chain 2: SYVLTQPPSVSVAPGKTARVTCGGNNIGSKSVHWYQQKPGQAPVLVIFYDSDRPSGIPERFSGSNSGNTATLTISRVEAGDEADYYCQVWDGSTDHPWVFGAGTKLTVL
B7: BD56-1650 (protein)
chain 1: QVQLVQSGAVLKKPGSSVKVSCKASGGSFSTNTITWVRQAPGQGLEWMGRIFPVLGVANYAQQFQGRVTITADKSTSTAYMELNRLRSEDTAEYYCAREPPNYCTRTICFDYWGQGTLVTVSS
chain 2: QSVLTQPPSVSGAPGQRVTISCTGSNSNIGAGYDVHWYQRLPGTAPKLLIYDNTNRPSGVPDRFSGSKSGTSASLAITGLQAADEADYYCQSYDSTLSDSVFGGGTKLTVL
B8: BD56-1652 (protein)
chain 1: EVQLVESGGGLVQPGRSLRLSCAASGFTFEDSAMHWVRQVPGKGLEWVSGMSRNSATIGYADSVKGRFIISRDNAKNSLYLQMYSLRLEDTAMYYCAKDMGSAIGPAGTEGMDVWGPGTTVTVSS
chain 2: SYVLTQPPSVSVAPGKTARITCGGNNIGRRSVHWYQQRPGQAPVLVVNDDSDRPSGIPERFSGSNSGNTATLTISRVEAGDEADYYCQVWDSTFDQVVFGGGTKLTVL
B9: COV2-2268 (protein)
chain 1: QITLKESGPTLVKPTQTLTLTCTFSGFSLSTSGVGVGWIRQPPGKALEWLALIYWDDDKRYSPSLKSRLSITKDTSKNQVVLTMTNMDPVDTGTYYCARHQIVVLFDMWGQGTRVTVSS
chain 2: QSALTQPASVSGSPGQSITISCTGTGSDVGGSNYVSWYQQHPGKAPKLMIYDVSNRPSGVSNRFSGSKSGNTASLTISGLQAEDEADYYCSSYTSSSTLVLFGGGTKLSVL
B10: BD56-1657 (protein)
chain 1: EVQLVESGGGLVQPGRSLRLSCAASGLNFEDYAMHWVRQAPGKGLEWVSGISWNSGTIGYADSVQGRFIISRDNAKNSLYLQMIRLRPEDTALYYCAKDISAGNYPRPGERGPGFNIWGQGTMVTVSS
chain 2: QSALTQPASVSGSPGQSITISCTGTSSDVGGYNYVSWYQQHPGKAPKLMIYDVANRPSGVSNRFSGSKSGNTASLTISGLQAEDEADYFCTSYTSSSTVVFGGGTKLTVL
B11: BD56-1666 (protein)
chain 1: QVQLQESGPGLVRPSGTLSLACAVSGASISSVNWWSWVRQPPGRGLEWIGRIYHSGSTTYNPSLRSRITMSVDKSRNHFSLTLTSVTAADTAVYYCAKVDDYRLNYFDYWGQGILVTVSS
chain 2: SYVLSQPPSVAVAPGQTARITCGGNNIGGKSVHWYQQKSGQAPVLVVSDDNDRPSGIPERFSGSNSGNTATLTISKVEAGDEADYYCQVWDSSSEHVVFGGGTKLTVL
B12: COV2-2760 (protein)
chain 1: QVTLRESGPALVKPTQTLTLTCTFSGFSLSTSGLCVSWIRQPPGKALEWLARIDWDDDKYYNTSLRTRLTISKDTSKNQVVLTMTNMDPVDTATYYCARATTFFYGMDVWGQGTTVTVSS
chain 2: QSVLTQPPSASGTPGQRVTISCSGSRYNIGSNYVYWYQQLPGTAPRLLIYSNNQRPSGVPDRFSGSKSGTSASLAISGLRSEDEADYYCAAWDDSLSGLIFGGGTKLTV

Each binder was assayed against SARS-CoV-2 Omicron BA.1 spike pseudovirus (assay: pseudovirus neutralization IC50; higher = weaker neutralization).
Procedure: (§1)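 Single-round VSV luciferase pseudovirus mixed with antibody dilutions for 1 h and put on Huh-7 cells for about a day; IC50 from the dose curve.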

Row | Binder | pseudovirus neutralization IC50 [µg/mL]
1 | B1 | > 10
2 | B2 | 0.0314
3 | B3 | 2.11
4 | B4 | > 10
5 | B5 | 0.0561
6 | B6 | > 10
7 | B7 | 0.0779
8 | B8 | 0.00911
9 | B9 | > 10
10 | B10 | 0.0228
11 | B11 | > 10
12 | B12 | > 10

Each binder was assayed against SARS-CoV-2 Omicron BA.2 spike pseudovirus in the same assay as above.
Procedure: as §1

Row | Binder | pseudovirus neutralization IC50 [µg/mL]
13 | B1 | > 10
14 | B2 | 0.0438
15 | B3 | 1.42
16 | B4 | > 10
17 | B5 | 0.0732
18 | B6 | > 10
19 | B7 | 0.086
20 | B8 | 0.0162
21 | B9 | > 10
22 | B10 | 0.0348
23 | B11 | > 10
24 | B12 | > 10

The binders below were run against SARS-CoV-2 Omicron BA.2.75 spike pseudovirus in the same assay as above.
Procedure: as §1

Row | Binder | pseudovirus neutralization IC50 [µg/mL]
25 | B1 | > 10
26 | B2 | 0.0674
27 | B3 | 2.71
28 | B4 | > 10
29 | B5 | 0.0785
30 | B6 | > 10
31 | B7 | 0.0446
32 | B8 | 0.00817
33 | B9 | > 10
34 | B10 | 0.0337
35 | B11 | > 10
36 | B12 | > 10

These binders were tested against SARS-CoV-2 Omicron BA.5 spike pseudovirus in the same assay as above.
Procedure: as §1

Row | Binder | pseudovirus neutralization IC50 [µg/mL]
37 | B1 | > 10
38 | B2 | 0.0896
39 | B3 | 0.949
40 | B4 | > 10
41 | B5 | 3.05
42 | B6 | > 10
43 | B7 | 2.75
44 | B8 | 0.123
45 | B9 | > 10
46 | B10 | 1.29
47 | B11 | > 10
48 | B12 | > 10

The binders below were run against SARS-CoV-2 Omicron BQ.1.1 spike pseudovirus in the same assay as above.
Procedure: as §1

Row | Binder | pseudovirus neutralization IC50 [µg/mL]
49 | B1 | > 10
50 | B2 | > 10
51 | B3 | 2.91
52 | B4 | > 10
53 | B5 | > 10
54 | B6 | > 10
55 | B7 | > 10
56 | B8 | > 10
57 | B9 | > 10
58 | B10 | > 10
59 | B11 | > 10
60 | B12 | > 10

What follows are binders tested against SARS-CoV-2 Omicron XBB spike pseudovirus in the same assay as above.
Procedure: as §1

Row | Binder | pseudovirus neutralization IC50 [µg/mL]
61 | B1 | > 10
62 | B2 | 1.38
63 | B3 | 2.41
64 | B4 | > 10
65 | B5 | 7.36
66 | B6 | > 10
67 | B7 | > 10
68 | B8 | > 10
69 | B9 | > 10
70 | B10 | 3.62
71 | B11 | > 10
72 | B12 | > 10

Each binder was assayed against SARS-CoV-2 early D614G spike pseudovirus in the same assay as above.
Procedure: as §1

Row | Binder | pseudovirus neutralization IC50 [µg/mL]
73 | B1 | > 10
74 | B2 | 0.14
75 | B3 | 3.51
76 | B4 | > 10
77 | B5 | 0.238
78 | B6 | > 10
79 | B7 | 0.42
80 | B8 | 0.0192
81 | B9 | 0.509
82 | B10 | 0.0377
83 | B11 | > 10
84 | B12 | > 10
